PubChem BioAssay AID504761, Drosophila RNAi Screening Center, 2011

Purpose: 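Fly genes whose silencing reduces dengue virus type 2 infection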 (primary screen)
Cell system: D.Mel-2 cells from Drosophila
Reagents: long dsRNA against Drosophila genes
Challenge: infection with dengue virus type 2; dose and infection time not stated
Measurement: 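Per well on two replicate plates, imaging gave the percent of cells positive for viral envelope protein, ranked by infection, and a nuclear count of cells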
Scale: infection score: higher = more virus-infected cells; cell count: higher = more cells in the well
Rule for the call: 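Very low infection ranking in both replicate wells (chance probability at most 0.065), then a retest showing infection dropped 1.5-fold or more at p below 0.05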
Calls: active = confirmed: knock-down lowers infection; inactive = not picked or not confirmed
The screen tested about 22,000 reagents; this is an unselected part of those with a known target gene and a result. In the full data, 116 (0.52%) were called active. 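Calls depend on retest data that are not deposited; infection was ranked per plate without normalising between plates; the unit of the infection score is not given.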 Raw values are not corrected between plates. Entries without a mark were called inactive. The numbers tell different reagents against one gene apart. Names joined by + are all predicted targets of the reagent. Not given: the amount of reagent, the time to read-out.

The opening 3 entries as a preview:
target gene	reagent no.	infection score, replicate 1	infection score, replicate 2	cell count, replicate 1	cell count, replicate 2
Sr-CIV (Scavenger receptor class C, type IV)	1	3.5	2.24	6859	6474
Sr-CIV (Scavenger receptor class C, type IV)	2	3.44	2.47	6195	6242
CG31780 + CG18477	1	12.3	2.83	5882	5863

Main list, repeating the preview:
target gene	reagent no.	infection score, replicate 1	infection score, replicate 2	cell count, replicate 1	cell count, replicate 2
Sr-CIV (Scavenger receptor class C, type IV)	1	3.5	2.24	6859	6474
Sr-CIV (Scavenger receptor class C, type IV)	2	3.44	2.47	6195	6242
CG31780 + CG18477	1	12.3	2.83	5882	5863
Spn28Db (Serpin 28Db)	1	3.16	2.6	6210	5780
CG13950	1	4.16	3.36	6232	6003
CG13950	2	13.7	21.9	6541	4768
Ih (I[[h]] channel)	1	29.5	21.8	2643	5290
Ih (I[[h]] channel)	2	3.87	2.07	6774	6634
Uggt (UDP-glucose-glycoprotein glucosyltransferase)	1	22.3	5.14	4655	6633
mnb (minibrain)	1	17.9	3.88	4767	7297
mnb (minibrain)	2	3.13	39.8	7341	6483
mnb (minibrain)	3	10.7	10.5	6650	5811
mnb (minibrain)	4	11.6	7.81	4058	4776
CG8675	1	2.04	1.27	6821	6437
CG8675	2	26.6	6.13	6291	1386
Neos (Neosin)	1	14.2	12.8	5194	4979
CG10562	1	2.9	3.28	6679	6545
CG10562	2	0.69	10.5	581	6104
Rev1 (DNA polymerase Rev1)	1	5.86	9.32	6572	6524
AlaRS (Alanyl-tRNA synthetase)	1	2.59	5.08	6171	5712
mtg (mind the gap)	1	5.46	5.74	6441	6536
mtg (mind the gap)	2	9.96	5.95	6629	6889
phr6-4 ((6-4)-photolyase)	1	3.06	10.4	6755	6537
phr6-4 ((6-4)-photolyase)	2	1.42 (active)	1.11	6419	6193
GatB (Glutamyl-tRNA amidotransferase, subunit B)	1	4.33	8.52	6325	6081
GatB (Glutamyl-tRNA amidotransferase, subunit B)	2	3.19	3.22	6491	6327
uncNacbeta	1	11.7	4.02	6648	6821
Pgant3 (Polypeptide N-Acetylgalactosaminyltransferase 3)	1	21.1	10.3	6299	6341
Pgant3 (Polypeptide N-Acetylgalactosaminyltransferase 3)	2	10.5	16.3	5422	4435
DCTN3-p24 (Dynactin 3, p24 subunit)	1	9.56	28.3	6443	5634
DCTN3-p24 (Dynactin 3, p24 subunit)	2	4.53	7.24	2184	6039
CG5882	1	10.7	1.68	6314	6419
Eglp1 (Entomoglyceroporin 1)	1	8.03	8.95	6811	6383
GstE7 (Glutathione S transferase E7)	1	18.7	2.95	5599	1390
CG18469	1	3.73	17	6436	3640
PEK (pancreatic eIF-2alpha kinase)	1	2.88	5.39	6774	6349
Osi20 (Osiris 20)	1	1.85	2.26	6715	6592
Osi20 (Osiris 20)	2	34.5	22.1	5907	5360
CG33475	1	2.23	7.35	5926	6858
Ythdc1 (YTH domain containing 1)	1	6.03	9.12	5841	4670
CG15545	1	1.7	2.63	5993	6969
CG15545	2	23.2		5563	429
Tfb1 (Transcription factor B1)	1	2.78	10.7	6018	6187
scu (scully)	1	2.62	5.37	6781	6631
scu (scully)	2	8.94	12.6	6051	6165
MICU1 (Mitochondrial calcium uptake 1)	1	5.84	3.64	6130	5935
Tmtc3 (Transmembrane O-mannosyltransferase targeting cadherins 3)	1	14.1	18.8	6344	6432
CG9393	1	4.16	6.28	6964	7009
Trxr2 (Thioredoxin reductase 2)	1	6.46	7.24	6623	6479
Trxr2 (Thioredoxin reductase 2)	2	1.79	9.35	6719	6633
CG8329	1	11	2.73	4719	1027
CG8329	2	10.2	6.83	6126	6029
CG17233	1	2.12	4.18	3438	3900
BuGZ (Bub3 interacting GLEBS and Zinc finger domain protein)	1	17.5	2.24	5324	5850
BuGZ (Bub3 interacting GLEBS and Zinc finger domain protein)	2	3.22	4.2	6020	6358
BuGZ (Bub3 interacting GLEBS and Zinc finger domain protein)	3	7.9	7.46	5174	3915
Ilp5 (Insulin-like peptide 5)	1	4.8	4.7	6334	6705
spi (spitz)	1	0.39	12.7	772	2661
spi (spitz)	2		11.8	342	3896
